Assay: soluble on expression in E. coli; label from the status in PepcDB or PDB records

Sequence: MSKTASSRNSLSAQLRRAANTRIEVEGNLALSIANDLLLAYGQSPFNSEAECISFSPRFDGTPDDFRINYLKAEIMSKYDDFSLGIDTEAVAWEKFLAAEAECALTNARLYRPDYSEDFNFSLGESCIHMARRKIAKLIGDVPSVEGMLRHCRFSGGATTTNNRSYGHPSFKFALPQACTPRALKYVLALRASTHFDTRISDISPFNKAVTVPKNSKTDRCIAIEPGWNMFFQLGIGGILRDRLRCWGIDLNDQTINQRRAHEGSVTNNLATVDLSAASDSISLALCELLLPPGWFEVLMDLRSPKGRLPDGSVVTYEKISSMGNGYTFELESLIFASLARSVCEILDLDSSEVTVYGDDIILPSCAVPALREVFKYVGFTTNTKKTFSEGPFRESCGKHYYSGVDVTPFYIRHRIVSPADLILVLNNLYRWATIDGVWDPRAHSVYLKYRKLLPKQLQRNTIPDGYGDGALVGSVLINPFAKNRGWIRYVPVITDHTRDRERAELGSYLYDLFSRCLSESNDGLPLRGPSGCDSADLFAIDQLICRSNPTKISRSTGKFDIQYIACSSRVLAPYGVFQGTKVASLHEA
- soluble on expression in E. coli: soluble
